# From PubChem BioAssay AID1259309 (ICCB-Longwood Screening Facility, Harvard Medical School, 2017)
# Where “and” joins values, the source holds several entries; their conditions need not be identical. Identical values can stand only once. The list shows a part of the results, in another mix than the full data. Calls of active or inactive are those of the source. Rule as the data show it: active = growth inhibition above about 68%; inactive = the rest.
# Assay: growth inhibition of ugtP-null S. aureus, primary screen, RN4220 ugtP deletion, OD600 (AID 1259309);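 also: plate controls were untreated wells for no effect and antibiotic for full effect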
# Conditions: 16 h, hits give high values
row,Compound,growth inhibition
1,NC(=O)c1cc([N+](=O)[O-])cc([N+](=O)[O-])c1N,inactive: -1.86%
2,COc1ccccc1OP(C)(=O)Nc1ccc(Br)cc1 (centres undefined),inactive: -2.48%
3,CN(C)C(=O)c1c([N+](=O)[O-])cc([N+](=O)[O-])cc1[N+](=O)[O-],inactive: 28.5%
4,CN(C(=O)Cc1ccc(Cl)c(Cl)c1)C1CCCCC1N1CCCC1 (centres undefined),inactive: 2.24% and inactive: 2.49% and inactive: 8.17%
5,CC1CCN(C(=O)Oc2c(Cl)cc(Cl)c3cccnc23)CC1,inactive: -1.64%
6,CC(C)(C)c1ccc(OP(C)(=O)O)cc1,inactive: 2.64%
7,Nc1ccc([As](=O)(O)c2ccc(N)cc2)cc1,inactive: 2.38%
8,COc1ccccc1OP(C)(=O)Nc1ccccc1Br (centres undefined),inactive: 4.23%
9,C[N+]1=C2C=CC=CC=C2SC12C([N+](=O)[O-])=CC([N+](=O)[O-])=C[C-]2[N+](=O)[O-] (centres undefined),inactive: 73.7%
10,CP(=O)(Nc1ccc(Cl)cc1)Oc1ccc(F)cc1 (centres undefined),inactive: -3.16%
11,COc1ccccc1OP(C)(=O)Nc1c(C)n(C)n(-c2ccccc2)c1=O (centres undefined),inactive: -0.653%
12,O=[N+]([O-])c1cccc2n[nH]nc12,inactive: 10.6%
13,CC(=O)N1C2C3N(C(C)=O)C1C1N(C(C)=O)C(C(N1C(C)=O)N3C(C)=O)N2C(C)=O,inactive: 0.841%
14,O=C(OCCCN1CCCC1)C(O)(c1ccccc1)C1CCCCC1 (centres undefined),inactive: 4.72%
15,CP(=O)(Oc1ccccc1)N1CCOC1=O (centres undefined),inactive: 8.4%
16,Cc1ccc(NP(=O)(Oc2ccccc2)Oc2ccccc2)nc1,inactive: 4.48%
17,CCc1nc2c(n1)c1c(non1O)c1c2no[n+]1[O-],inactive: -14.8%
18,O=[N+]([O-])c1cc([N+](=O)[O-])c(CCNc2ccccc2)c([N+](=O)[O-])c1,inactive: 12.5%
19,CCc1ccc(OP(C)(=O)Nc2cccnc2)cc1 (centres undefined),inactive: 3.57%
20,CCN(CC)CC(O)COC(=O)C(O)(c1ccccc1)C1CCCCC1 (centres undefined),inactive: 2.58%
21,COc1ccc(OP(C)(=O)Nc2ccc(Br)cc2)cc1 (centres undefined),inactive: -12.7%
22,COc1ccc(C2=NCC(CBr)S2)cc1 (centres undefined),inactive: 1.53%
23,O=[N+]([O-])c1cccc(NC2=NCC(CBr)S2)c1 (centres undefined),inactive: -1.92%
24,O=C(O)CNc1ccc([As](=O)(O)O)cc1,inactive: 4.82%

row,Compound,growth inhibition
1,CC(C)(C)C(=O)NC(Sc1ccncn1)C(Cl)(Cl)Cl (centres undefined),inactive: 9.8%
2,O=[N+]([O-])c1ncn(CCn2ncnc2[N+](=O)[O-])n1,inactive: 10%
3,O=C(Nc1cc([As](=O)(O)O)ccc1O)c1ccccc1,inactive: 6.18%
4,CP(=O)(OC12CC3CC(CC(C3)C1)C2)OC12CC3CC(CC(C3)C1)C2,inactive: -10.9%
5,Nc1ccc2c(ccc3cccnc32)n1.O=[N+]([O-])c1cc([N+](=O)[O-])c(O)c([N+](=O)[O-])c1,inactive: -1.74%
6,O=P1(N(CCCl)CCCl)OCCCS1 (centres undefined),inactive: 0.8%
7,O=[N+]([O-])c1ccc(O)c(C=NNc2ccc([N+](=O)[O-])cc2[N+](=O)[O-])c1,inactive: 64.3%
8,Cc1c(C(c2ccc3c(c2)OCO3)c2c(C)n(C)n(-c3ccccc3)c2=O)c(=O)n(-c2ccccc2)n1C.O=[N+]([O-])c1cc([N+](=O)[O-])c(O)c([N+](=O)[O-])c1,inactive: -8.96%
9,Nc1ccc([As](=O)(O)c2ccc([N+](=O)[O-])cc2)cc1,inactive: 9.57%
10,C(Cc1nn[nH]n1)Cc1nn[nH]n1,inactive: 6.27%
11,O=C(OC1CN2CCC1CC2)c1cccc(Cl)c1 (centres undefined),inactive: 1.68%
12,CC(=O)NC(SC(=S)N(C)C)C(Cl)(Cl)Cl (centres undefined),inactive: 37.7%
13,O=[N+]([O-])c1ccc(OP2(=O)COCCO2)cc1 (centres undefined),inactive: 2.59%
14,O=[N+]([O-])c1ncn(CCn2cnc([N+](=O)[O-])n2)n1,inactive: 9.33%
15,O=[As](O)(c1ccccc1)c1ccc(O)cc1,inactive: 5.87%
16,CN(C(=O)Cc1ccc(Cl)c(Cl)c1)C1CC[C@@]2(CCCO2)CC1N1CCCC1 (some centres undefined),inactive: 0.0225%
17,Cc1cc(-c2cccc3ccccc23)c(C)cn1.O=[N+]([O-])c1cc([N+](=O)[O-])c(O)c([N+](=O)[O-])c1,inactive: 12.4%
18,O=[N+]([O-])c1cc([N+](=O)[O-])c(NCC2CCS(=O)(=O)C2)c([N+](=O)[O-])c1 (centres undefined),inactive: 80.5%
19,CCN(C(=NP(=O)(N1CCOCC1)N1CCOCC1)N1CCOCC1)c1ccc(OC)cc1,inactive: 3.81%
20,O=P(Nc1nc2ccccc2s1)(c1ccccc1)c1ccccc1,inactive: -1.05%
21,COc1ccc(NP(C)(=O)Oc2ccccc2OC)cc1 (centres undefined),inactive: -0.976%
22,COc1ccc(OP(C)(=O)Nc2cccc(Br)c2)cc1 (centres undefined),inactive: 2.79%
23,CC(C)C=NN=C(N)N[N+](=O)[O-],inactive: 3.45%
24,COc1ccc(N)c([N+](=O)[O-])c1[N+](=O)[O-],inactive: 5.51%

row,Compound,growth inhibition
1,C=CCN1CCN(CCOC(=O)C(O)(c2ccccc2)c2ccccc2)CC1,inactive: 7.25%
2,O=P(Nc1ccccn1)(c1ccc(Br)cc1)c1ccc(Br)cc1,inactive: 4.51%
3,CN(C)C1(CNC(=O)c2ccc(Cl)c(S(N)(=O)=O)c2)CCCCC1,inactive: 4.1%
4,Cc1ccccc1NP(C)(=O)Nc1ccccc1C,inactive: -1.84%
5,CP(=O)(Nc1ccc2c(c1)OCCO2)Oc1ccccc1 (centres undefined),inactive: 2.98%
6,CCOP(C)(=S)SCC(=O)NC(C)(CC)C(=O)O (centres undefined),inactive: 0.828%
7,c1nnnn1CCn1cnnn1,inactive: 6.41%
8,CP(=O)(Nc1ccc(SC(F)(F)F)cc1)Oc1ccc(F)cc1 (centres undefined),inactive: -15.6%
9,CC(C)C(=O)NC(Sc1ccccc1)C(Cl)(Cl)Cl (centres undefined),inactive: -2.19%
10,O=P(Nc1nccs1)(c1ccccc1)c1ccccc1,inactive: -0.909%
11,CCNC(=S)N=C(N)N[N+](=O)[O-],inactive: 3.76%
12,CC(=O)Nc1ccc([As](=O)(O)O)c(O)c1,inactive: 4.07%
13,CC(=O)Nc1ccc(Oc2c([N+](=O)[O-])cc([N+](=O)[O-])cc2[N+](=O)[O-])cc1,inactive: 13.9%
14,NC(=NO)c1c(N)no[n+]1[O-],inactive: -2.54%
15,CC(=O)c1ccc(N2CC2c2ccncc2)cc1 (centres undefined),inactive: 4.37%
16,O=C(OC1CN2CCC1CC2)c1ccc([N+](=O)[O-])cc1 (centres undefined),inactive: 10.8%
17,Cc1ccccc1CN(C)C(=O)COC(=O)C(O)(c1ccccc1)c1ccccc1,inactive: 9.69%
18,O=C(OCCN1CCN(CCOCc2ccccc2)CC1)C(O)(c1ccccc1)c1ccccc1,inactive: -0.507%
19,CCc1cc(O)c([N+](=O)[O-])c(C)c1[N+](=O)[O-],inactive: 20.7%
20,CP(=O)(Nc1ccccc1F)Oc1ccccc1 (centres undefined),inactive: -0.451%
21,CC(C)(C)C(=O)NC(Sc1ccccc1)C(Cl)(Cl)Cl (centres undefined),inactive: 1.34%
22,CN(C(=O)Cc1ccccc1)C1CC[C@]2(CCCO2)CC1N1CCCC1 (some centres undefined),inactive: -2.03%
23,O=P1(Nc2nc3ccc(Cl)cc3s2)COc2ccccc2O1 (centres undefined),inactive: -3.45%
24,CCOc1ccc(C2=NCC(CBr)S2)cc1 (centres undefined),inactive: 3.38%

row,Compound,growth inhibition
1,CP(=O)(Nc1ccccc1)Oc1ccc(F)cc1 (centres undefined),inactive: 0.452%
2,Cc1ccccc1OP(=O)(Nc1ccccn1)Oc1ccccc1C,inactive: -4.32%
3,CC(NC(=O)COC(=O)C(O)(c1ccccc1)c1ccccc1)c1ccccc1 (centres undefined),inactive: -0.418%
4,CN(C)C(=O)Oc1noc2ccccc12,inactive: 6.04%
5,O=[N+]([O-])c1cc([N+](=O)[O-])c(OC2CCCCC2O)c([N+](=O)[O-])c1 (centres undefined),inactive: 5.72%
6,Cc1c([N+](=O)[O-])cc([N+](=O)[O-])c(Br)c1[N+](=O)[O-],inactive: 5.9%
7,COC(=O)c1cc2c(s1)N=C(c1ccccc1)N(C)P2(=O)N1CCOCC1 (centres undefined),inactive: -0.481%
8,CC(=O)NC(SC(=S)N(CC(C)C)CC(C)C)C(Cl)(Cl)Cl (centres undefined),inactive: 34.9%
9,Cc1ccc(OP(=O)(Nc2ccccn2)Oc2ccc(C)cc2)cc1,inactive: -10.7%
10,O=C(OC1CN2CCC1CC2)c1ccccc1 (centres undefined),inactive: 2.7%
11,CCN(CC)CCCOC(=O)C(O)(c1ccccc1)C1CCCCC1 (centres undefined),inactive: 0.893%
12,CC1OP(=O)(Oc2ccccc2)CC2OC12 (centres undefined),inactive: -0.35%
13,CCC(=O)N1C2C3N(C(=O)CC)C1C1N(C(=O)CC)C(C(N1C(=O)CC)N3C(=O)CC)N2C(=O)CC,inactive: -4.44%
14,O=P1(N(CCCl)CCCl)OCCC2CCCCN21 (centres undefined),inactive: -3.08%
15,CCOC(=O)c1ccc(NP(C)(=O)Oc2ccc(F)cc2)cc1 (centres undefined),inactive: -0.262%
16,COc1ccc(OP(C)(=O)Nc2ccc(SC(F)(F)F)cc2)cc1 (centres undefined),inactive: -4.11%
17,O=C(NC1CCS(=O)(=O)C1)NP(=S)(Oc1ccccc1)Oc1ccccc1 (centres undefined),inactive: 4.9%
18,c1ccc(-c2nn[nH]n2)c(-c2nn[nH]n2)c1,inactive: 6.94%
19,Cc1ccc(NP(=O)(Oc2cccc(C)c2)Oc2cccc(C)c2)nc1,inactive: 3.28%
20,CN(C)C(=O)c1cc([N+](=O)[O-])cc2c1-c1c(cc([N+](=O)[O-])cc1[N+](=O)[O-])C2=O,inactive: 20.1%
21,O=[N+]([O-])c1ccc2c(c1)nnn2O,inactive: -0.455%
22,CC1=NCCc2c1[nH]c1ccccc21.O=[N+]([O-])c1cc([N+](=O)[O-])c(O)c([N+](=O)[O-])c1,inactive: 6.29%
